PubChem BioAssay AID504761, Drosophila RNAi Screening Center – 2011
Assay: 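Insect host genes that dengue virus relies on to spread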 (primary screen). Cell system: D.Mel-2 cells from Drosophila. Reagent: long dsRNA against Drosophila genes. Challenge: infection with dengue virus type 2; dose and infection time not stated. Measurement: 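Cells stained for dengue envelope protein and imaged; percent of infected cells per well on duplicate plates, ranked by infection, with stained nuclei counted for cell number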. Direction: infection score: higher = more virus-infected cells; cell count: higher = more cells in the well. Call rule: 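Very low infection ranking in both replicate wells (chance probability at most 0.065), then a retest showing infection dropped 1.5-fold or more at p below 0.05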. Meaning of the calls: active = confirmed: knock-down lowers infection; inactive = not picked or not confirmed.
In all, the deposit lists about 22,000 reagents; shown is a random part of those that have a named target and a result. Of all reagents, 116 (0.52%) were called active. 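Calls depend on retest data that are not deposited; infection was ranked per plate without normalising between plates; the unit of the infection score is not given.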 Raw values are not corrected between plates. Reagents against one gene are numbered here. Names joined by + are all predicted targets of the reagent. Not stated in the record: the amount of reagent, the time to read-out.

| Gene | reagent | infection score, replicate 1 | infection score, replicate 2 | cell count, replicate 1 | cell count, replicate 2 | Call |
| --- | --- | --- | --- | --- | --- | --- |
| RpL22-like | 1 | 13.6 | 20.1 | 4053 | 5531 | inactive |
| CG30105 | 1 | 2.68 | 2.46 | 6520 | 6183 | inactive |
| CG30105 | 2 | – | 7.82 | 311 | 1356 | inactive |
| peo | 1 | 12 | 12.9 | 5935 | 6194 | inactive |
| scf | 1 | 0.73 | 1.94 | 5862 | 5988 | inactive |
| Ocho | 1 | 2.79 | 4.09 | 6271 | 6140 | inactive |
| Ocho | 2 | 21.1 | 24.8 | 5441 | 5219 | inactive |
| CG32718 | 1 | 8.41 | 3.09 | 6471 | 6411 | inactive |

An excerpt taken from the entries so far:
| Gene | reagent | infection score, replicate 1 | infection score, replicate 2 | cell count, replicate 1 | cell count, replicate 2 | Call |
| --- | --- | --- | --- | --- | --- | --- |
| scf | 1 | 0.73 | 1.94 | 5862 | 5988 | inactive |
| Ocho | 1 | 2.79 | 4.09 | 6271 | 6140 | inactive |
| Ocho | 2 | 21.1 | 24.8 | 5441 | 5219 | inactive |

The results go on:
| Gene | reagent | infection score, replicate 1 | infection score, replicate 2 | cell count, replicate 1 | cell count, replicate 2 | Call |
| --- | --- | --- | --- | --- | --- | --- |
| CG14780 | 1 | 4.66 | 5.15 | 6679 | 5980 | inactive |
| CG7148 | 1 | 7.13 | 7.89 | 5862 | 6324 | inactive |
| snoRNA:660 + Act57B | 1 | 4.44 | 14.2 | 5383 | 5229 | inactive |
| CG10073 | 1 | 3.48 | 1.67 | 6720 | 6466 | inactive |
| RpL37-1 | 1 | 3.04 | 8.23 | 6587 | 6246 | inactive |
| RpL37-1 | 2 | 0.73 | 4.14 | 2465 | 2995 | inactive |
| Gmap | 1 | 2.49 | 1.33 | 6068 | 6636 | inactive |
| Gmap | 2 | 7.36 | 6.51 | 4673 | 5687 | inactive |
| Gmap | 3 | 7.46 | 5.34 | 4815 | 4941 | inactive |
| CG11898 | 1 | 0.56 | 2.57 | 5523 | 5955 | inactive |
| CG11898 | 2 | 7.89 | 25.7 | 6744 | 5865 | inactive |
| TBC1D16 | 1 | 7.31 | 4.85 | 6433 | 6373 | inactive |
| Orc4 | 1 | 11.9 | 37.4 | 6671 | 4504 | inactive |
| Orc4 | 2 | – | – | 346 | 250 | inactive |
| l(2)k01209 | 1 | 12.2 | 7.03 | 4609 | 5819 | inactive |
| l(2)k01209 | 2 | – | 3.73 | 391 | 1660 | inactive |
